The exact form of at least one protein or probe is not confirmed. At least one verdict was read from the data and is not stated in words by the source. Protein sequences can lack the tags named with them.
Target: T1, HU PG0121 (tagless) (Porphyromonas gingivalis W83) (UniProt Q7MXP9)
T1 sequence (looked up, limits assumed): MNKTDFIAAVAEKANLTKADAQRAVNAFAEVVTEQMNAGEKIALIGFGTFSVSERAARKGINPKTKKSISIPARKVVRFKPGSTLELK
Assay: EMSA
Conditions: EMSA: 52.5 mM HEPES pH 6.5, 50 uM EDTA, 9.5% glycerol, 100 mM KCl, 50 ug/ml BSA, 30 min, room temperature, 6% native PAGE in 0.5x TBE, recombinant protein, label: 5'-32P

Does “CAGGACAATCGCATTTGAACCGTTACACACTTATAGATCTCATGATTGCTACATTCAATTATCAAACAAGTGCGAAT (double strand) [Homoduplex II]” bind (affinity rank 7 of 11, Kd only in Fig 3, single experiment)?
Result: binds

With “CAGGGCAATCGCATTTGAACCGTTACACACTTATAGATCTAACGATTGCTACGCTCGGTTATCAAACAAGTACGAAT (double strand) [Homoduplex I]” as the sequence, how does the Kd read?
The Kd was 84 nM.

Does “CAGGGCAATCGCATTTGAACCGTTACACACTTATAGATCTAACGATTGCTACGCTCGGTTATCAAACAAGTACGAAT / ATCTATAAGTGTGTAACGGTTCAAATGCGATTGCCCTG / ATTCGTACTTGTTTGATAACCGAGCGTAGCAATCGTT [Gap-2]” bind (affinity rank 5 of 11, Kd only in Fig 3)?
Result: binds

Does “CAGGGCAATCGCATTTGAACCGTTACACACTTATAGATCTAACGATTGCTACGCTCGGTTATCAAACAAGTACGAAT / ATCTATAAGTGTGTAACGGTTCAAATGCGATTGCCCTG / ATTCGTACTTGTTTGATAACCGAGCGTAGCAATCGTTA [Gap-1]” bind (affinity rank 3 of 11, Kd only in Fig 3)?
Result: binds

Which Kd does the source give for “CAGGGCAATCGCATTTGAACCGTTACACACTTATAGATCTAACGATTGCTACGCTCGGTTATCAAACAAGTACGAAT / ATTCGCACTTGTTTGATAATTGAATGTAGCAATCATGAGATCTATAAGTGTGTAACGGTTCAAATGCGATTGTCCTG [Heteroduplex I]” here?
The Kd was 67.5 nM.

Does “CAGGGCAATCGCATTTGAACCGTTACACACTTATAGATCTAACGATTGCTACGCTCGGTTATCAAACAAGTACGAAT / ATTCGTACTTGTTTGATAACCGAGCGTAGCAAAGGTTAGATCTTAAAGTGTGTAACGGTTCAAATGCGATTGCCCTG [Loop (original, central)]” bind (affinity rank 2 of 11, Kd only in Fig 3)?
Result: binds

Does “CAGGGCAATCGCATTTGAACCGTTACACACTTATAGATCTAACGATTGCTACGCTCGGTTATCAAACAAGTACGAAT / ATTCGTACTTGTTTGATAACCGAGCGTAGCAATCCCCGTTAGATCTCCCATAAGTGTGTAACGGTTCAAATGCGATTGCCCTG [Bulges]” bind (affinity rank 1 of 11, Kd only in Fig 3)?
Result: binds

Does “CAGGGCAATCGCATTTGAACCGTTACACACTTATAGATCTAACGATTGCTACGCTCGGTTATCAAACAAGTACGAAT / ATTCGTACTTGTTTGATAACCGAGCGTAGCAATCGTTAGATCTATAAGTCAGTAACGGTTGTAATGCGATTGCCCTG [Loop 2]” bind (bend permutation)?
Result: binds

Does “CAGGGCAATCGCATTTGAACCGTTACACACTTATAGATCTAACGATTGCTACGCTCGGTTATCAAACAAGTACGAAT / ATTCGTACTTGTTTGTAAACCGAGCGATGCAATCGTTAGATCTATAAGTGTGTAACGGTTCAAATGCGATTGCCCTG [Loop 3]” bind (bend permutation)?
Result: binds

Does “CAGGGCAATCGCATTTGAACCGTTACACACTTATAGATCTAACGATTGCTACGCTCGGTTATCAAACAAGTACGAAT / GTACTTGTTTGATAACCGAGCGTAGCAATCGTTAGATCTATAAGTGTGTAACGGTTCAAATGCGATTGCCCTG [3'-overhang]” bind (affinity rank 8 of 11, Kd only in Fig 3)?
Result: binds

Source: paper PMC3969353
